In PubChem BioAssay AID1117319 (Southern Research Institute, 2015) one finds inhibition data, which are given here for 56 compounds.

The list shows a part of the results. Records with an inconclusive call do not appear. Active and inactive are the calls of the source.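 Rule for the calls: active = inhibition above a set limit at one or more doses, reproduced on every date tested; inconclusive = results disagree between test dates, or hit never tested in dose response; inactive = the rest.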

In this assay the target is Virion infectivity factor (Human immunodeficiency virus type 1 group M subtype B (isolate BH10)) + Virion infectivity factor (Human immunodeficiency virus type 1 group M subtype B (isolate BRU/LAI)) + Virion infectivity factor (Human immunodeficiency virus type 1 group M subtype B (isolate PCV12)) + Virion infectivity factor (Human immunodeficiency virus type 1 group M subtype B (isolate HXB2)) + DNA dC->dU-editing enzyme APOBEC-3G (Homo sapiens) (UniProt P69720+P69721+P69722+P69723+Q9HC16). In words: HIV-1 Vif–A3G interaction blockers – biochemical, TR-FRET, GST-Vif 1-94, biotin-A3G peptide, dose response retest, primary screen (AID 1117319).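 Note: Vif residues 1-94 fused to GST binding biotinylated APOBEC3G peptide 110-148; 0% = full assay without inhibitor and 100% = GST in place of GST-Vif.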 To be noted: TR-FRET GST-Vif / biotin-A3G peptide binding; stronger effect = higher value. Background: In TR-FRET formats the signal depends on donor and acceptor labels being close together.
For orientation: inhibition means the relative decrease from the control value, in per cent. `c1ccc(CN2CCC(Nc3ccccc3)CC2)cc1`: the inhibition is inactive: 1.68%.

As for `Cc1cc(N(CCCl)CCCl)ccc1C=O`, the inhibition was inactive: -3.41%.

Turning to `CN(C)C1(CNC(=O)c2cccc(C#N)c2)CCCCC1`, the inhibition was inactive: 1.87%.

Turning to `CC(C)(C)OC(=O)N1CCC(N(C(=O)c2ccccc2)c2ccc(Cl)cc2)CC1`, the inhibition was inactive: -6.84%.

In the case of `N/C(=N\O)c1c(N)no[n+]1[O-]`, the inhibition is inactive: -0.35%.

For the compound `CCOC(=O)N1CCC(Nc2ccc(C)cc2)CC1`, the inhibition was inactive: -0.38%.

Consider `COc1ccc(C(=O)NCC2(N3CCOCC3)CCCCC2)cc1OC`, for which the inhibition is inactive: 14.6%.

For `CCCOc1ccc(C)cc1CN(CCCl)CCCl`, the inhibition is inactive: -4.24%.

For the compound `CCC(CO)(C(=O)OC1CN2CCC1CC2)c1ccccc1` (stereo unspecified), the inhibition was inactive: -3.03%.

On to `COc1cccc(C(=O)N(c2cc(C)cc(C)c2)C2CCN(C(=O)OC(C)(C)C)CC2)c1`, for which the inhibition is inactive: 0.09%.

Take `COc1cc(OC)cc(C(=O)NCC2(N3CCOCC3)CCCCC2)c1`: the inhibition was inactive: 0.4%.

As to `CCCOc1ccc(C(=O)NCC2(N(C)C)CCCCC2)cc1`, the inhibition is inactive: -0.4%.

On to `CC(C)(C)OC(=O)N1CCC(Nc2ccccc2)CC1`, for which the inhibition is inactive: 0.57%.

As to `O=C(O)C1(Nc2ccccc2)CCN(Cc2ccccc2)CC1`, the inhibition is inactive: -2.35%.

Consider `CCOc1ncccc1C(=O)NCC1(N2CCOCC2)CCCCC1`, for which the inhibition was inactive: -3.28%.

`CN1CCC(Nc2ccc(F)c(Cl)c2)CC1`: the inhibition is inactive: 9.2%.

Turning to `O=C(NCC1(N2CCCCC2)CCCCC1)c1ccco1`, the inhibition was inactive: 0.87%.

Regarding `Cn1c(=O)[nH]cc(N(CCCl)CCCl)c1=O`, the inhibition is inactive: -2.93%.

On to `CN(C)c1ccc(C(=O)NCC2(N3CCCCC3)CCCCC2)cc1`, for which the inhibition is inactive: -4.4%.

With `Cc1ccccc1NC1(C#N)CCN(Cc2ccccc2)CC1`, the inhibition was inactive: -6.45%.

`CCN1CCC(Nc2cccc(F)c2)CC1`: the inhibition was inactive: 6.57%.

On to `Cc1ccc(NC2(C#N)CCN(Cc3ccccc3)CC2)cc1`, for which the inhibition was inactive: -9.64%.

Regarding `Cc1ccc(C(=O)NCC2(N3CCCCC3)CCCCC2)o1`, the inhibition was inactive: 2.68%.

Take `Fc1ccccc1NC1CCN(Cc2ccccc2)CC1`: the inhibition was inactive: 1.08%.

`CC(=O)N(c1ccccc1)C1CCNCC1`: the inhibition is inactive: -7.91%.

Turning to `COc1cc(C(=O)NCC2(N(C)C)CCCCC2)ccc1OC(F)F`, the inhibition was inactive: 6%.

`Cc1ccc(OCC(C)C)c(CN(CCCl)CCCl)c1`: the inhibition was inactive: 7.3%.

As for `CCCCOc1ccc(C(=O)NCC2(N3CCOCC3)CCCCC2)cc1`, the inhibition is inactive: 0.62%.

Turning to `O=P1(N(CCCl)CCCl)SCCCS1`, the inhibition was inactive: -1.68%.

`COc1ccc(NC2CCN(CCc3ccccc3)CC2)c(OC)c1`: the inhibition was inactive: 29.1%.

With `CCOc1ccc(C)cc1CN(CCCl)CCCl`, the inhibition was inactive: 17.8%.

In the case of `CCOC(=O)N1CCC(Nc2ccc(OC)cc2)CC1`, the inhibition is inactive: 5.14%.

On to `O=C(OC1CN2CCC1CC2)C1c2ccccc2Oc2ccccc21` (stereo unspecified), for which the inhibition is inactive: 4.74%.

For the compound `O=C(NCC1(N2CCCCC2)CCCCC1)c1ccc(Cl)s1`, the inhibition was inactive: 1.03%.

Consider `N#CC1(Nc2ccccc2)CCN(Cc2ccccc2)CC1`, for which the inhibition was inactive: 2.72%.

As to `O=C(NCC1(N2CCCCC2)CCCCC1)c1ccc(Cl)nc1`, the inhibition is inactive: -0.54%.

With `Cc1cc(C)cc(N(C(=O)c2ccccc2)C2CCN(C(=O)OC(C)(C)C)CC2)c1`, the inhibition is inactive: -7.21%.

Consider `CSc1ccccc1C(=O)NCC1(N2CCCCC2)CCCCC1`, for which the inhibition is inactive: 2.67%.

Consider `Cc1cccc(NC2(C#N)CCN(Cc3ccccc3)CC2)c1`, for which the inhibition is inactive: -1.13%.

For `O=C(NCC1(N2CCCCC2)CCCCC1)c1ccc(=O)[nH]c1`, the inhibition was inactive: -3.41%.

As to `O=C(NCC1(N2CCCCC2)CCCCC1)c1cccs1`, the inhibition is inactive: 7.39%.

On to `COc1ccc(C(=O)NCC2(N3CCCCC3)CCCCC2)cc1`, for which the inhibition is inactive: 1.2%.

In the case of `CC(C)(C)OC(=O)N1CCC(N(C(=O)c2ccccc2)c2ccc(F)cc2)CC1`, the inhibition is inactive: -7.38%.

As for `COc1ccc(C(=O)NCC2(N3CCCCC3)CCCCC2)c(OC)c1OC`, the inhibition is inactive: -1.97%.

For `CCCOc1ccc(C(=O)NCC2(N(C)C)CCCCC2)cc1OC`, the inhibition is inactive: -3.82%.

For `O=C(NCC1(N2CCCCC2)CCCCC1)c1cncc(Br)c1`, the inhibition is inactive: 0.22%.

For `CN1CCC(Nc2cccc(F)c2)CC1`, the inhibition is inactive: -1.12%.

Take `COc1cc(OC)c(C(=O)NCC2(N(C)C)CCCCC2)cc1OC`: the inhibition was inactive: 8.61%.

Consider `COc1ccc(CN(CCCl)CCCl)cc1Cl`, for which the inhibition was inactive: 1.76%.

As to `CC(C)c1ccc(NC2CCN(C(=O)OC(C)(C)C)CC2)cc1`, the inhibition was inactive: -3.59%.

As to `CC(C)c1ccc(C(=O)NCC2(N3CCOCC3)CCCCC2)cc1`, the inhibition was inactive: -3.05%.

On to `O=C(NCC1(N2CCOCC2)CCCCC1)c1cc(=O)[nH]c2ccccc12`, for which the inhibition is inactive: 4.68%.

In the case of `COc1cc(C(=O)NCC2(N3CCCCC3)CCCCC2)ccc1OC(F)F`, the inhibition was inactive: -5.87%.

Consider `O=C(NCC1(N2CCCCC2)CCCCC1)c1cccc([N+](=O)[O-])c1`, for which the inhibition was inactive: 4.27%.

Turning to `CSc1ccc(C(=O)NCC2(N3CCOCC3)CCCCC2)cc1`, the inhibition is inactive: -2.26%.

As to `N#CC1(Nc2ccccc2)CCN(CCc2ccccc2)CC1`, the inhibition is inactive: -2.95%.
